# Human monoclonal antibodies against the spike receptor-binding domain (heavy:light variable regions). IC50 against pseudoviruses bearing the spike of naturally observed variants; lower = stronger; >10 µg/ml means not reached at the top dose. No active / inactive call. The stated detection limit is 0.0005 µg/ml; values near or below 0.001 µg/ml lie at the floor of the assay.
# B1: BD55-5967 (protein)
# chain 1: QVELQESGPGLLKPSETLSLTCTVSGDPITSYYWSWIRQPPGKGLEYIGYIYFSGNTNYNPSLKSRVTLSIDTSKNQFSLKLSSVTAADTAIYYCARSPLTGTTRLLDYWGQGTRVTVSS
# chain 2: IVMTQSPATLSVSPGETATLSCRASQSVGSNLAWYQQKAGQAPRLLIYGASTRATGIPARFSGSGSGTEFTLIISSLQSADFAVYHCQQYNTWPWTFGPGTKVEIK
# B2: BD55-5936 (protein)
# chain 1: EVQLVESGGGLVQPGGSLRLSCAASGFIFSSYNMNWVRQAPGKGLEWVSYISSGSDTIYDADSVKGRFTISRDNAKNSLYLQMNSLRDEDTAVYYCARHYGAKSYYYYGMDVWGQGTTVTVSS
# chain 2: DIQMTQSPSSLSASVGDRVTITCRASQTIYNYLNWYQQRPGKAPKLVIYAASSLQSGVPPRFSGSGSGTDFTLTISSLQPEDFATFYCQQSYSTPPTFGQGTKLEIK
# B3: BD55-5938 (protein)
# chain 1: QLQLQESGPGLVKPSETLSLTCTVSGGSISSSSYYWGWIRQPPGKGLEWIGIIYYSGSTYYNPSLKSRVTISIDTSKNHFSLKLSSVTAADTAVYYCARDLILYGEGAFDYWGQGTLVTVSS
# chain 2: QAGLTQPPSVSKGLRQTATLTCTGNSNNVGNQGAAWLQQHQGHPPKLLSYRNNNRPSGISERLSASRSGNTASLTITGLQPEDEADYYCSAWDSSLSAWVFGGGTKLTVL
# B4: BD55-1136 (protein)
# chain 1: QVQLVQSGAEMKKPGASVKVSCKASGYTFTTYYIHWVRQAPGQGLEWMGVINPSGGGTSLPQKFQGRVTMTRDTSTSTVDMDLSNLRSEDTAVYYCARGSSGLDIVLRWYFDLWGRGTLVTVSS
# chain 2: QSVLTQPPSVSGAPGQRVTISCTGSSSNFGAGYDVHWYQQLPGTAPKLLIYSNTNRPSGVPDRFSGSRSGTSASLAITGLQAEDEAHYYCQSFDATLSGSSVVFGGGTKLTVL
# B5: BD55-5953 (protein)
# chain 1: QVTLKESGPVLVKPTETLTLTCTVSGFSLVNSRMGVSWIRQPPGKALEWLAHILSNDEKSYSTSLKNRLTISKDTSKSQVVLTMTNVDPADTATYFCARIPAHSSIYYTLEYYFDYWGRGTLVTVSS
# chain 2: YELTQPPSVSVSPGQTARIPCSGDALPRLYTYWYQLRPGQAPLLVIYNDSERPSGIPERFSGSTSGTTVTLTISGVQADDEADYYCQSADSSGININFGGGTKLTVL
# B6: BD55-5920 (protein)
# chain 1: EVQLLESGGGLVQPGGSLGLSCAASGFTFSTYAMGWVRQAPGKGLEWVSGITYSGESTYYADSVKGRFTISRDNSKNTLYLHMNSLRADDTAIYYCAKVPARIAVVGSVYYFDYWGQGTLVTVSS
# chain 2: QSALTQPASVSGSPGQSITISCAGTSSDVGVYNYVSWYQQHPGKAPKLMIYDVTKRPSGVSNRFSGSKSGNTASLTISGLQADDEADYYCSSYASSSTLVFGGGTKLTVL
# B7: BD55-5924 (protein)
# chain 1: QVQLQESGPGLVKPSETLSLTCTVSGGSINTDYWSWIRQPAGKGLEWIGRIYASGSPSYNPSLNSRITMSVDTSRNQFSLKLNSVTAADTAVYFCAREKHYYDDSGYYHYFFDFWGQGTVVTVSS
# chain 2: IQMTQSPSSLSASVGDRVTITCRASQGIANYLAWFQLKPGKAPKSLIYAASALHTGVPSKFSGSGSGTDFNLTISSLQPEDFATYYCQQYTGYPPTFGQGTKVEVK
# B8: BD55-5950 (protein)
# chain 1: EVQLVESGGGLIQPGGSLRLSCVASGVTVSRNYMSWVRQAPGKGLEWVSVIYSGGSTYYADSVKGRFTISRDNSKNTLYLQMNSLRAEDTAVYYCARDLGDDAFDIWGQGTMVTVSS
# chain 2: DIQLTQSPSFLSASVGDRVTITCRASQGISSYLAWYQQKPGKAPKLLIYAASTLQSGVPSRFSGSGSGTEFTLTISSLQPEDFATYYCQQLNSYPRSGTFGQGTKVEIK
# B9: BD55-5952 (protein)
# chain 1: QVQLVQSGAEVKKPGASVKVSCKASGYTFTNYDINWVRQATGQGPEWMGWMNPNSGDTGYAQKFQGRVTMTRDTSIRTAYMELSSLTSEDTAVYYCAISFDSRGYYYYYAMDVWGQGTTVTVSS
# chain 2: DIQMTQSPSSLPASVGDRVAITCRASQSISSYLNWYQQKPGKAPKLLIYDASTLQTGVPSRISGSGSGTDFTLTISSLQPEDFATYYCQQSYSTPPTFGQGTKVEFK
# B10: BD55-5939 (protein)
# chain 1: QMQLVQSGHEVKKSGASVKVSCKASGFSFTSSAVQWVRQARGQRLEWIGWIVVGSGSTYYAQKFQERLTITRDMSTSTVYVQLNSLRDEDTAVYYCSRGHLGYYYHGMDVWGQGTTVTVSS
# chain 2: DIQMTQSPSSLSASVGDRVTITCQASQDISNYLNWFQQKPGKAPKLLIYDASNLEAGVPSRFSGSGSGTDFTFTISGLQPEDFATYFCQQYDNLPRTFGQGTKVEI
# B11: BD55-5942 (protein)
# chain 1: EMQLVQSGGGLVQPGGSLRLSCAAPEFTFSSYWMSWVRQAPGRGLEWVANINQDGSEKYYVDSVKGRFTIFRDNAKNSLYLQMNSLGAEDTAVYYCARRALDIVAPIAGDYYFDSWGQGTLVTVSS
# chain 2: SYELTQPPSVSVSPGQTARITCSGDAFPRQFGYWYQQKPGQAPVLVIYKDSERPSGIPERFSGSSSGKRVTLTISGVQAEDEADYYCQSADSSGFPGVFGGGTKLTVL
# B12: BD55-5966 (protein)
# chain 1: EVQLVESGGGLVHPGRSLRLSCTASGFTFGDHAMSWVRQAPGKGLEWVGFIRSKAHGGTTEYAASVKGRFTISRDDSKSIAYLQMNSLKTEDTAVYYCTKTEIGGMWAIGYGMDVWGQGTTVTVSS
# chain 2: QSVLTQPPSASGTPGQRVTISCSGSSSNIGSNYVYWYQQFPGAAPKLLIYRNNLRPSGVPDRFSGSKSGTSASLAISGLRSEDEADYYCAAWDDSLSGLFGGGTKLTVL
# Target: SARS-CoV-2 Omicron BA.1 spike pseudovirus
# Assay: pseudovirus neutralization IC50; higher = weaker neutralization
# Description: (§1)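 Single-round VSV luciferase pseudovirus mixed with antibody dilutions for 1 h and put on Huh-7 cells for about a day; IC50 from the dose curve.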
row,Binder,pseudovirus neutralization IC50
1,B1,1.99 µg/mL
2,B2,> 10 µg/mL
3,B3,> 10 µg/mL
4,B4,> 10 µg/mL
5,B5,> 10 µg/mL
6,B6,> 10 µg/mL
7,B7,> 10 µg/mL
8,B8,> 10 µg/mL
9,B9,> 10 µg/mL
10,B10,> 10 µg/mL
11,B11,> 10 µg/mL
12,B12,> 10 µg/mL

# Target: SARS-CoV-2 Omicron BA.2 spike pseudovirus
# Assay: as above
# Description: as §1
row,Binder,pseudovirus neutralization IC50
1,B1,1.58 µg/mL
2,B2,> 10 µg/mL
3,B3,> 10 µg/mL
4,B4,> 10 µg/mL
5,B5,> 10 µg/mL
6,B6,> 10 µg/mL
7,B7,> 10 µg/mL
8,B8,> 10 µg/mL
9,B9,> 10 µg/mL
10,B10,> 10 µg/mL
11,B11,> 10 µg/mL
12,B12,> 10 µg/mL

# Target: SARS-CoV-2 Omicron BA.2.75 spike pseudovirus
# Assay: as above
# Description: as §1
row,Binder,pseudovirus neutralization IC50
1,B1,0.53 µg/mL
2,B2,> 10 µg/mL
3,B3,> 10 µg/mL
4,B4,> 10 µg/mL
5,B5,> 10 µg/mL
6,B6,> 10 µg/mL
7,B7,> 10 µg/mL
8,B8,> 10 µg/mL
9,B9,> 10 µg/mL
10,B10,> 10 µg/mL
11,B11,> 10 µg/mL
12,B12,> 10 µg/mL

# Target: SARS-CoV-2 Omicron BA.5 spike pseudovirus
# Assay: as above
# Description: as §1
row,Binder,pseudovirus neutralization IC50
1,B1,> 10 µg/mL
2,B2,> 10 µg/mL
3,B3,> 10 µg/mL
4,B4,> 10 µg/mL
5,B5,> 10 µg/mL
6,B6,> 10 µg/mL
7,B7,> 10 µg/mL
8,B8,> 10 µg/mL
9,B9,> 10 µg/mL
10,B10,> 10 µg/mL
11,B11,> 10 µg/mL
12,B12,> 10 µg/mL

# Target: SARS-CoV-2 Omicron BQ.1.1 spike pseudovirus
# Assay: as above
# Description: as §1
row,Binder,pseudovirus neutralization IC50
1,B1,> 10 µg/mL
2,B2,> 10 µg/mL
3,B3,> 10 µg/mL
4,B4,> 10 µg/mL
5,B5,> 10 µg/mL
6,B6,> 10 µg/mL
7,B7,> 10 µg/mL
8,B8,> 10 µg/mL
9,B9,> 10 µg/mL
10,B10,> 10 µg/mL
11,B11,> 10 µg/mL
12,B12,> 10 µg/mL

# Target: SARS-CoV-2 Omicron XBB spike pseudovirus
# Assay: as above
# Description: as §1
row,Binder,pseudovirus neutralization IC50
1,B1,> 10 µg/mL
2,B2,> 10 µg/mL
3,B3,> 10 µg/mL
4,B4,> 10 µg/mL
5,B5,> 10 µg/mL
6,B6,> 10 µg/mL
7,B7,> 10 µg/mL
8,B8,> 10 µg/mL
9,B9,> 10 µg/mL
10,B10,> 10 µg/mL
11,B11,> 10 µg/mL
12,B12,> 10 µg/mL

# Target: SARS-CoV-2 early D614G spike pseudovirus
# Assay: as above
# Description: as §1
row,Binder,pseudovirus neutralization IC50
1,B1,0.00323 µg/mL
2,B2,> 10 µg/mL
3,B3,> 10 µg/mL
4,B4,0.00195 µg/mL
5,B5,> 10 µg/mL
6,B6,0.544 µg/mL
7,B7,> 10 µg/mL
8,B8,0.0222 µg/mL
9,B9,> 10 µg/mL
10,B10,> 10 µg/mL
11,B11,> 10 µg/mL
12,B12,0.00517 µg/mL

# — the supplement of paper PMC9931576
